Measured values from several laboratories, pooled; numbers as filed in NIAID ChemDB.

Shared fields: growth or infection tests; organism: Plasmodium falciparum

ECn: concentration that inhibits the pathogen or its effect by n%. An empty or dashed field is not shown. Conditions beyond the fields shown may differ between rows.

structure	cell line	mutations	measure	strain	read by	result
CCN(CCO)CCCC(C)Nc1ccnc2cc(Cl)ccc12	-	-	EC50	W2	-	0.49 µg/mL
OCCNc1nc(NCCNc2ccnc3cc(Cl)ccc23)nc(N2CCCCC2)n1	-	-	EC50	W2	-	0.49 µM
Clc1cccc(NCn2nnc3ccccc32)c1	-	-	EC50	Dd2	-	>50 µM
O[C@H](c1cc(C(F)(F)F)nc2c(C(F)(F)F)cccc12)[C@@H]1CCCCN1	human red blood cells	-	EC50	F32	broth dilution / radiometric	0.043 µM
OCCCCNc1nc(NCCNc2ccnc3cc(Cl)ccc23)nc(N2CCCCC2)n1	-	-	EC50	D6	-	0.14 µM
C/C=C1/CN2CCC34c5ccccc5N5C=C6[C@H]7C[C@@H]8N(CCC89c8ccccc8N(C=C([C@H]1C[C@H]23)[C@H]54)[C@@H]69)C/C7=C/C	-	-	EC90	W2	-	2.969 µg/mL
CCN(CC)CCCC(C)Nc1ccnc2cc(Cl)ccc12	-	-	EC50	W2	-	0.43 µM
COc1ccc(NC(=O)C2C(C(=O)O)[C@@H]3CC[C@H]2O3)cc1	-	-	EC50	W2	-	>500 µM
C=C1CN2CCC34c5ccccc5N5C=C([C@H]6CC7C8=C(CCC7C/C6=C/C)c6ccccc6C8)[C@@H](O)[C@@H]([C@H]53)[C@H]1C[C@H]24	-	-	EC90	3D7	-	2.528 µg/mL
CCN(CC)CCCC(C)Nc1ccnc2cc(Cl)ccc12	-	-	EC50	FCM29	-	0.09 µg/mL
CCCCCCc1ncn(CC(=O)CC2NCCC[C@@H]2O)c(=O)c1CCCCCC	Human A+ erythrocytes	-	EC50	K1	LDH / absorbance	>1 µg/mL
O=C1[C@@H]2C[C@H]3C=CC=C[C@H]3N2C(=O)[C@@H]2C[C@H]3C=CC=C[C@H]3N12	-	-	EC50	3D7	SYBR Green	>50 µM
COc1ccc(N2CCN(C(=O)CN3C(=O)SC(=Cc4c(OC)cc(OC)cc4OC)C3=O)CC2)cc1	-	Chloroquine-resistant	EC50	W2	fluorescence	1.21 µM
O=c1c(O[C@@H]2O[C@H](CO)[C@H](O)[C@H](O)[C@H]2O)c(-c2ccc(O)c(O)c2)oc2cc(O)cc(O)c12	-	-	EC90	Clinical isolates	-	113 µM
C[C@@H]1CC[C@H]2[C@@H](C)C(=O)O[C@@H]3OC4(C)CC[C@@H]1[C@]32OO4	-	-	EC50	-	schizont maturation	0.0081 µM
C[C@H]1[C@@H](O)O[C@@H]2OC3(C)CC[C@H]4[C@H](C)CC[C@@H]1[C@@]24OO3	-	-	EC50	NF54	-	0.0011 µM
O=C(CN1C(=O)SC(=Cc2ccc(Cl)cc2Cl)C1=O)N1CCN(c2ccccc2)CC1	-	Chloroquine-resistant	EC50	W2	fluorescence	>10 µM
CS[C@@]12C[C@H]3C(=O)C=C[C@H](O)[C@H]3N1C(=O)[C@]1(SC)C[C@H]3C(=O)C=C[C@H](O)[C@H]3N1C2=O	-	-	EC50	3D7	SYBR Green	1.2 µM
COc1ccc2nccc([C@@H](O)C3CC4CCN3CC4/C=C/c3ccc4ccccc4c3)c2c1	-	-	EC50	Dd2	-	>0.5 µM
Cc1ccc(NC2=C(ON)C(=O)CS2)cc1C	-	-	EC50	Dd2	-	>20 µM
O=C(NCCOc1ccccc1)c1ccccc1O	-	-	EC50	Dd2	-	13.4 µM
C[n+]1c2ccccc2cc2[nH]c3ccccc3c21.O=S(=O)([O-])C(F)(F)F	-	-	EC50	K1	-	0.8 µM
O=C(C[C@H]1NCCC[C@@H]1O)Cn1cnc2c(c1=O)CCC2	Human A+ erythrocytes	-	EC50	K1	LDH / absorbance	0.0911 µg/mL
O=C(CC1CCC2(CC1)OOC1(OO2)C2CC3CC(C2)CC1C3)N1CCOCC1	-	-	EC50	K1	-	0.0008 µM
COc1cc(OC)c(C=C2SC(=O)N(CC(=O)N3CCN(c4cccc(Cl)c4)CC3)C2=O)c(OC)c1	-	Chloroquine-resistant	EC50	W2	fluorescence	0.55 µM
O=C(C[C@H]1NCCC[C@@H]1O)Cn1cnc2cc(Br)c(Cl)cc2c1=O	-	-	EC50	3D7	microscopy / fluorescence	0.0007 µM
CS[C@@]12C[C@H]3C=CC=C[C@H]3N1C(=O)[C@]1(SC)C[C@H]3C=CC=C[C@H]3N1C2=O	-	-	EC50	3D7	SYBR Green	>50 µM
CCOC(=O)c1cn(Cc2ccc(F)cc2)c2ccc3nc(-c4ccccc4)c(-c4ccccc4)nc3c2c1=O	-	-	EC50	W2	fluorescence	6.94 µM
CC(C)CN1CCN(C(=O)CC2CCC3(CC2)OOC2(OO3)C3CC4CC(C3)CC2C4)CC1	-	-	EC50	3D7	-	0.0014 µM
COc1ccc(C(=O)NCCOc2cccc(C)c2)c(Cl)c1	-	-	EC50	Dd2	-	>50 µM
CCN(CC)CCCC(C)Nc1ccnc2cc(Cl)ccc12	Erythrocyte	-	EC50	FCR3	LDH	0.015 µg/mL
CCN(CC)CCCC(C)Nc1ccnc2cc(Cl)ccc12	-	Chloroquine-resistant	EC50	W2	fluorescence	0.033 µM
C=C1CN2CCC34c5ccccc5N5C=C([C@H]6CC7C8=C(CCN7C/C6=C/C)C6C=CC=CC6N8)[C@@H](O)[C@@H]([C@H]53)[C@H]1C[C@]24O	-	-	EC90	3D7	-	15.1 µg/mL
CS[C@]12C[C@H]3C=CC=C[C@H]3N1C(=O)[C@@]1(SC)C[C@H]3C=CC=C[C@H]3N1C2=O	-	-	EC50	3D7	SYBR Green	>50 µM
OCCCCNc1nc(NCCCCNc2ccnc3cc(Cl)ccc23)nc(N2CCOCC2)n1	-	-	EC50	W2	-	0.49 µM
C[C@@H]1CC[C@H]2[C@@H](C)C(=O)O[C@@H]3OC4(C)CC[C@@H]1[C@]32OO4	human red blood cells	-	EC50	F32	broth dilution / radiometric	0.0123 µM
OCCNc1nc(NCCCCNc2ccnc3cc(Cl)ccc23)nc(N2CCOCC2)n1	-	-	EC50	D6	-	0.19 µM
C[C@H]1[C@@H](OC(=O)CCC(=O)O)O[C@@H]2O[C@@]3(C)CC[C@H]4[C@H](C)CC[C@@H]1[C@@]24OO3	-	-	EC50	K1	-	0.003 µM
O=C(CC1CCC2(CC1)OOC1(OO2)C2CC3CC(C2)CC1C3)N1CCC(N2CCOCC2)CC1	-	-	EC50	3D7	-	0.0025 µM
CC(C)c1ccc(C2OOC(c3ccc(CO)cc3)OO2)cc1	-	-	EC50	D6	LDH	2.2 µM
COc1cc(/C=C2\CC/C(=C\c3ccc(OCCCn4ccnc4)c(OC)c3)C2=O)ccc1OCCCn1ccnc1	-	-	EC50	D6	-	0.53 µM
CCc1nc(N)nc(N)c1-c1ccc(Cl)cc1	-	-	EC50	NF54	-	0.017 µM
O[C@H](c1cc(C(F)(F)F)nc2c(C(F)(F)F)cccc12)[C@@H]1CCCCN1	-	-	EC50	RSA11	-	0.008 µM
CC1(C)O[C@@H]1COc1c2occc2cc2ccc(=O)oc12	RBC	-	EC50	CQ-resistant	-	2.5 µg/mL
OCCCNc1nc(NCCNc2ccnc3cc(Cl)ccc23)nc(N2CCOCC2)n1	-	-	EC50	D6	-	0.67 µM
CCOC(=O)c1cn(Cc2ccc(F)cc2)c2ccc3nc(-c4ccc(F)cc4)c(-c4ccc(F)cc4)nc3c2c1=O	-	-	EC50	W2	fluorescence	7.59 µM
O=C(CN1C(=O)SC(=Cc2ccc(C(F)(F)F)cc2)C1=O)N1CCN(c2ccccc2)CC1	-	Chloroquine-resistant	EC50	W2	fluorescence	>10 µM
O=c1c2ccccc2ncn1CCCC1NCC[C@@H]1O	Human A+ erythrocytes	-	EC50	K1	LDH / absorbance	>1 µg/mL
CCNc1cc2sc3cc(=[NH+]CC)c(C)cc-3nc2cc1C	-	-	EC50	-	-	0.00362 µM
CCN(CC)CCCC(C)Nc1ccnc2cc(Cl)ccc12	-	-	EC50	D10	-	0.03 µM
CN1CCc2cc3c(cc2[C@H]1[C@H]1OC(=O)c2c1ccc1c2OCO1)OCO3	-	-	EC50	K1CB1	-	>10 µg/mL
Cc1cccc(OCCNC(=O)c2ccccc2F)c1	-	-	EC50	Dd2	-	10.5 µM
COc1cc(OC)c(C=C2SC(=O)N(CC(=O)N3CCN(C4CCCCC4)CC3)C2=O)c(OC)c1	-	Chloroquine-resistant	EC50	W2	fluorescence	3.56 µM
O=C1N2[C@@H]3C=CC=C[C@@H]3C[C@@]23SS[C@@]12C[C@H]1C=CC=C[C@H]1N2C3=O	-	-	EC50	3D7	SYBR Green	2.7 µM
Cc1cccc(OCCNC(=O)c2ccccc2O)c1	-	-	EC50	Dd2	-	7.9 µM
COc1cc(/C=C2\CC/C(=C\c3ccc(OCCn4ccnc4C)c(OC)c3)C2=O)ccc1OCCn1ccnc1C	-	-	EC50	D6	-	2.01 µM
COc1cc(OC)c(C=C2SC(=O)N(CC(=O)N3CCN(c4ccc(Cl)cc4)CC3)C2=O)c(OC)c1	-	Chloroquine-resistant	EC50	W2	fluorescence	1.43 µM
OCCCCNc1nc(NCCCCNc2ccnc3cc(Cl)ccc23)nc(N2CCCCC2)n1	-	-	EC50	D6	-	0.1 µM
Cc1ccc(NCN2C(=O)c3ccccc3C2=O)cc1	-	-	EC50	Dd2	-	>50 µM
O=C(CC1NCCC[C@@H]1O)Cn1cnc2ccccc2c1=O	Human A+ erythrocytes	-	EC50	K1	LDH / absorbance	0.0014 µg/mL
Cc1c2ccncc2c(C)c2c1[nH]c1ccccc12	-	-	EC50	3D7	-	0.35 µM
CN1CCc2cc3c(cc2[C@@H]1[C@@H]1OC(=O)c2c1ccc1c2OCO1)OCO3	-	-	EC50	TM4/8.2	-	>20 µg/mL
C=C1C(=O)O[C@@H]2/C=C(\COC(C)=O)CC/C=C(/C=O)C[C@@H](O)[C@@H]12	-	-	EC50	3D7	LDH / absorbance	0.92 µg/mL
O=C(NCCOc1ccc2c(c1)CCCC2)c1ccccc1Cl	-	-	EC50	Dd2	-	2.5 µM
COc1cc2c(cc1O)[C@@H]1Cc3ccc(OC)c(O)c3CN1CC2	-	-	EC50	K1CB1	-	1.04 µg/mL
Cc1ccc(N=C2SCC(O)=C2C(=O)O)cc1C	-	-	EC50	3D7	-	>20 µM
C/C=C(\C)C(=O)O[C@@H]1CC(C(=O)O)=C2C(=O)C=C(C)[C@@H]2[C@H]2OC(=O)[C@H](C)[C@@H]21	-	-	EC50	-	-	>5 µg/mL
Cc1cccc(OCCNC(=O)c2ccc(N(C)C)cc2Cl)c1	-	-	EC50	Dd2	-	>50 µM
CCc1nc(N)nc(N)c1-c1ccc(Cl)cc1	-	-	EC50	Dd2	LDH	0.0151 µg/mL
O=C(NCCOc1ccc2ccccc2c1)c1ccccc1Cl	-	-	EC50	Dd2	-	1.7 µM
CC(C)c1cccc(C=C2SC(=O)N(CC(=O)N3CCN(c4ccccc4)CC3)C2=O)c1	-	Chloroquine-resistant	EC50	W2	fluorescence	>10 µM
COc1cc(/C=C2\CC/C(=C\c3ccc(OCCCn4ccnc4C)c(OC)c3)C2=O)ccc1OCCCn1ccnc1C	-	-	EC50	D6	-	4 µM
C[C@H]1[C@@H](OC(=O)CCC(=O)O)O[C@@H]2O[C@@]3(C)CC[C@H]4[C@H](C)CC[C@@H]1[C@@]24OO3	-	-	EC50	D10	-	0.006 µM
OCCCNc1nc(NCCCNc2ccnc3cc(Cl)ccc23)nc(N2CCOCC2)n1	-	-	EC50	W2	-	1.52 µM
C[C@@H]1CC[C@H]2[C@@H](C)C(=O)O[C@@H]3OC4(C)CC[C@@H]1[C@]32OO4	-	-	EC50	3D7	-	0.0011 µM
COc1cc(OC)c(C=C2SC(=O)N(C34CC5CC(CC(C5)C3)C4)C2=O)c(OC)c1	-	Chloroquine-resistant	EC50	W2	fluorescence	>10 µM
C/C=C(\C)C(=O)O[C@@H]1CC([C@@H](O)[C@]2(C)C=C3OC(=O)C4=C3[C@H]2[C@H]2OC(=O)[C@H](C)[C@@H]2[C@H](OC(=O)/C(C)=C/C)C4)=C2C(=O)C=C(C)[C@@H]2[C@H]2OC(=O)[C@H](C)[C@@H]21	-	-	EC50	-	-	1.4 µg/mL

A second listing of 9 rows from above:

{"structure": "COc1cc(OC)c(C=C2SC(=O)N(CC(=O)N3CCN(c4ccc(Cl)cc4)CC3)C2=O)c(OC)c1", "mutations": "Chloroquine-resistant", "measure": "EC50", "strain": "W2", "read by": "fluorescence", "result": "1.43 µM"}
{"structure": "O[C@H](c1cc(C(F)(F)F)nc2c(C(F)(F)F)cccc12)[C@@H]1CCCCN1", "measure": "EC50", "strain": "RSA11", "result": "0.008 µM"}
{"structure": "CS[C@@]12C[C@H]3C=CC=C[C@H]3N1C(=O)[C@]1(SC)C[C@H]3C=CC=C[C@H]3N1C2=O", "measure": "EC50", "strain": "3D7", "read by": "SYBR Green", "result": ">50 µM"}
{"structure": "OCCNc1nc(NCCNc2ccnc3cc(Cl)ccc23)nc(N2CCCCC2)n1", "measure": "EC50", "strain": "W2", "result": "0.49 µM"}
{"structure": "CCN(CC)CCCC(C)Nc1ccnc2cc(Cl)ccc12", "measure": "EC50", "strain": "FCM29", "result": "0.09 µg/mL"}
{"structure": "Cc1cccc(OCCNC(=O)c2ccccc2O)c1", "measure": "EC50", "strain": "Dd2", "result": "7.9 µM"}
{"structure": "O=C(NCCOc1ccccc1)c1ccccc1O", "measure": "EC50", "strain": "Dd2", "result": "13.4 µM"}
{"structure": "CS[C@@]12C[C@H]3C(=O)C=C[C@H](O)[C@H]3N1C(=O)[C@]1(SC)C[C@H]3C(=O)C=C[C@H](O)[C@H]3N1C2=O", "measure": "EC50", "strain": "3D7", "read by": "SYBR Green", "result": "1.2 µM"}
{"structure": "C[C@@H]1CC[C@H]2[C@@H](C)C(=O)O[C@@H]3OC4(C)CC[C@@H]1[C@]32OO4", "measure": "EC50", "strain": "3D7", "result": "0.0011 µM"}